Test results published in patent US10065989B2, “Molecular sleds and uses thereof” (The Broad Institute, Inc., priority 2012, dated 2018).

What follows are compounds tested against adenovirus proteinase (AVP) (Human adenovirus C serotype 2, UniProt P03252).
Assay type: biochemical

Row | SMILES | Max
1 | CC(C)C[C@H](NC(=O)[C@H](CO)NC(=O)[C@@H](N)CCC(N)=O)C(=O)N[C@@H](CCCCN)C(=O)N[C@@H](CCCNC(=N)N)C(=O)N[C@@H](CCCNC(=N)N)C(=O)N[C@@H](CCCNC(=N)N)C(=O)N[C@@H](CS)C(=O)N[C@@H](Cc1ccccc1)C(=O)O | 13 ± 0.08
2 | CC(C)C[C@H](NC(=O)[C@@H](N)CO)C(=O)N[C@@H](CCCCN)C(=O)N[C@@H](CCCNC(=N)N)C(=O)N[C@@H](CCCNC(=N)N)C(=O)N[C@@H](CCCNC(=N)N)C(=O)N[C@@H](CS)C(=O)N[C@@H](Cc1ccccc1)C(=O)O | 22 ± 4.7 and 14 ± 0.5
3 | CC(C)C[C@H](NC(=O)[C@H](CO)NC(=O)[C@H](CCC(N)=O)NC(=O)[C@@H](N)C(C)C)C(=O)N[C@@H](CCCCN)C(=O)N[C@@H](CCCNC(=N)N)C(=O)N[C@@H](CCCNC(=N)N)C(=O)N[C@@H](CCCNC(=N)N)C(=O)N[C@@H](CS)C(=O)N[C@@H](Cc1ccccc1)C(=O)O | 23 ± 2.15
4 | N=C(N)NCCC[C@H](NC(=O)[C@H](CCCNC(=N)N)NC(=O)[C@H](CCCNC(=N)N)NC(=O)[C@@H](N)CCCCN)C(=O)N[C@@H](CS)C(=O)N[C@@H](Cc1ccccc1)C(=O)O [KRRRCF] | 7.7 ± 0.5
5 | N=C(N)NCCC[C@H](NC(=O)[C@H](CCCNC(=N)N)NC(=O)[C@@H](N)CCCNC(=N)N)C(=O)N[C@@H](CS)C(=O)N[C@@H](Cc1ccccc1)C(=O)O [RRRCF] | 1.7 ± 0.12

Where “and” joins values, the source holds several entries; their conditions need not be identical. Identical values can stand only once.
